# Data as given in PubChem BioAssay AID504761 (Drosophila RNAi Screening Center, 2011)
# Screen: 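Fly genes whose silencing reduces dengue virus type 2 infection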 (primary screen)
# Cells: D.Mel-2 cells from Drosophila
# Knock-down reagent: long dsRNA against Drosophila genes
# Conditions: infection with dengue virus type 2; dose and infection time not stated
# Detection: 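Cells stained for dengue envelope protein and imaged; percent of infected cells per well on duplicate plates, ranked by infection, with stained nuclei counted for cell number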
# Reading the numbers: infection score: higher = more virus-infected cells; cell count: higher = more cells in the well
# Rule for the call: 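Very low infection ranking in both replicate wells (chance probability at most 0.065), then a retest showing infection dropped 1.5-fold or more at p below 0.05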
# Calls: active = confirmed: knock-down lowers infection; inactive = not picked or not confirmed
# The screen tested about 22,000 reagents; this is a random part of those with a known target gene and a result. Of all reagents, 116 (0.52%) are marked active. 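Calls depend on retest data that are not deposited; infection was ranked per plate without normalising between plates; the unit of the infection score is not given.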 The raw values are shown without normalisation. A number with no mark means an inactive call. A plus sign joins genes that one reagent is predicted to hit. Not all columns of the deposit are shown. Not given: the amount of reagent, the time to read-out.
Target gene,DRSC id,"infection score, replicate 1","infection score, replicate 2","cell count, replicate 1"
Edg78E (GeneID 40354),DRSC11863,7.06,5.78,6498
Edg78E (GeneID 40354),DRSC26712,16.8,10.1,5039
TfIIEalpha (GeneID 39313),DRSC11303,8.54,4.46,6613
TfIIEalpha (GeneID 39313),DRSC27748,22.4,16,6148
Damm (GeneID 36266),DRSC07393,10.8,11.7,6266
alpha-Est7 (GeneID 40901),DRSC12619,0.91,1.01,7062
alpha-Est7 (GeneID 40901),DRSC27539,2.84,9.67,6766
CG18335 (GeneID 36202),DRSC06723,9.11,7.42,2438
CG18335 (GeneID 36202),DRSC29997,19.1,9.34,5829
MED10 (GeneID 39777),DRSC10474,1.81,2.47,5757
CG44836 (GeneID 39825),DRSC09915,1.23,2.04,6095
CG44836 (GeneID 39825),DRSC26572,2.61,2.9,6137
CG13043 (GeneID 39796),DRSC09924,1.45,5.13,6006
CG13043 (GeneID 39796),DRSC25440,2.28,3.01,6312
lost (GeneID 40559),DRSC12002,0.37,0.66,5652
lost (GeneID 40559),DRSC12234,4.53,9.83,6427
lost (GeneID 40559),DRSC21987,12.6,2.54,4331
CG15233 (GeneID 35556),DRSC04967,,28.7,26
RhoGEF4 (GeneID 38806),DRSC11011,15.8,7.24,4931
RhoGEF4 (GeneID 38806),DRSC26016,7.57,11.2,5763
Dnaaf4 (GeneID 34547),DRSC02405,11.2,12.2,6221
Sprn (GeneID 39344),DRSC10132,2.05,11,6388
LeuRS (GeneID 326262),DRSC00581,16.1,1.54,4390
Atpalpha (GeneID 48971),DRSC14119,3.84,13,6925
HisT (GeneID 35697),DRSC05051,0.03,0.07,6365
HisT (GeneID 35697),DRSC06405,16.8,11.1,5994
ND6 (retired record) (GeneID 192479),DRSC21271,1.86,2.52,6491
CG8476 (GeneID 41624),DRSC16426,2.31,5.97,6939
CG8476 (GeneID 41624),DRSC27865,11.1,1.37,6235
CG10280 (GeneID 40740),DRSC12133,4.23,5.46,6627
CG10280 (GeneID 40740),DRSC25571,4.51,6.64,6446
Dbp73D (GeneID 39871),DRSC11142,2.29,11.2,6123
CG14933 + CG42486,DRSC02415,2.89,4.74,6506
colt (GeneID 33470),DRSC00808,1.99,9.16,6130
colt (GeneID 33470),DRSC29025,0.25,21.8,396
CG18428 (GeneID 42857),DRSC15326,2.8,3.07,6248
CG18428 (GeneID 42857),DRSC29185,15.1,7.73,3962
CG9328 (GeneID 35344),DRSC03203,13.2,5.41,6504
Taf12 (GeneID 41406),DRSC16879,17.4,14.4,5803
Taf12 (GeneID 41406),DRSC28181,16.5,40.9,4502
Den1 (GeneID 36339),DRSC07195,23.3,19.2,3934
Rpn12R (GeneID 2768973),DRSC09842,1.73,1.86,6232
dmpd (GeneID 36061),DRSC06092,8.36,11.8,5787
hfp (GeneID 38173),DRSC08731,18.1,18.8,3986
hfp (GeneID 38173),DRSC08732,4.21,2.08,5650
hfp (GeneID 38173),DRSC22408,3.73,5.9,6120
hfp (GeneID 38173),DRSC25143,2.9,9.29,6170
CG11668 (GeneID 41606),DRSC14341,1.15,6.65,6611
CLS (GeneID 43104),DRSC15642,8.41,16,4461
CLS (GeneID 43104),DRSC28289,18,15.8,3421
Klp59C (GeneID 37671),DRSC04348,21.4,27.3,6130
Klp59C (GeneID 37671),DRSC24637,2.64,1.08,6207
CG4645 (GeneID 32244),DRSC19907,1.18,1.12,6511
CG4645 (GeneID 32244),DRSC24802,12.7,16,6065
Osi1 (GeneID 40752),DRSC12271,7.48,4.62,6254
elfless (GeneID 35076),DRSC02451,16.3,4.05,5366
CG12659 (GeneID 50403),DRSC17862,0.41,2.39,6273
CG12659 (GeneID 50403),DRSC27326,16.6,7.46,6084

Reformatted: results already given.
CG44836 (GeneID 39825) [DRSC26572]
- infection score, replicate 1: 2.61
- infection score, replicate 2: 2.9
- cell count, replicate 1: 6137

CG13043 (GeneID 39796) [DRSC09924]
- infection score, replicate 1: 1.45
- infection score, replicate 2: 5.13
- cell count, replicate 1: 6006

CG13043 (GeneID 39796) [DRSC25440]
- infection score, replicate 1: 2.28
- infection score, replicate 2: 3.01
- cell count, replicate 1: 6312

lost (GeneID 40559) [DRSC12002]
- infection score, replicate 1: 0.37
- infection score, replicate 2: 0.66
- cell count, replicate 1: 5652

lost (GeneID 40559) [DRSC12234]
- infection score, replicate 1: 4.53
- infection score, replicate 2: 9.83
- cell count, replicate 1: 6427

lost (GeneID 40559) [DRSC21987]
- infection score, replicate 1: 12.6
- infection score, replicate 2: 2.54
- cell count, replicate 1: 4331

CG15233 (GeneID 35556) [DRSC04967]
- infection score, replicate 2: 28.7
- cell count, replicate 1: 26

RhoGEF4 (GeneID 38806) [DRSC11011]
- infection score, replicate 1: 15.8
- infection score, replicate 2: 7.24
- cell count, replicate 1: 4931
